From PubChem BioAssay AID588727 (Southern Research Specialized Biocontainment Screening …, 2011)
The list shows a part of the results. Potency and affinity values are given separately. Activity calls are given as the source filed them. How the calls were made is not given here.

Assay: inhibitors of VEEV TC-83 cytopathic effect, confirmation, Vero cells (AID 588727)
Settings: VEEV TC-83 cytopathic effect inhibition, at 20 µM; stronger effect = higher value

SMILES	inhibition
O=C(Nc1cc([As](=O)(O)O)ccc1O)c1ccccc1	inactive: 1.22%
O=P1(N(CCCl)CCCl)OCCCS1 (centres undefined)	inactive: 1.16%
CCN(N=Nc1nonc1N)c1nonc1N	inactive: 1.02%
Nc1cccc2ccc([As](=O)(O)O)cc12	inactive: 2.15%
Cc1ccc(NP(=O)(Oc2ccccc2F)Oc2ccccc2F)nc1	inactive
CN(C(=O)Cc1ccc(Cl)c(Cl)c1)[C@H]1CCCC[C@@H]1N1CCCC1	inactive: 0.29%
Cc1cc(SC(NC(=O)c2ccc(F)cc2)C(Cl)(Cl)Cl)ncn1 (centres undefined)	inactive: 1.78%
CCOP(=O)(Nc1ccccc1)OCC	inactive: 4.14%
CCCC1OP(N)(=O)OCC1CC (centres undefined)	inactive
CC(=O)Nc1ccc([As](=O)(O)O)cc1	inactive: 0.19%
O=C(O)c1ccccc1[As](=O)(O)O	inactive
O=P(Nc1nc2ccc(Cl)cc2s1)(c1ccccc1)c1ccccc1	inactive: 0.97%
CN(C)P(=O)(N(C)C)n1c(Nc2ccccc2)nnc1-c1ccccc1	inactive: 8.1%
Nc1cc(N)c2nonc2c1[N+](=O)[O-]	inactive: 0.84%
CC(C)CC(=O)NC(Sc1ccc(Cl)cc1)C(Cl)(Cl)Cl (centres undefined)	inactive
O=C(NC(Sc1ccncn1)C(Cl)(Cl)Cl)c1ccccc1 (centres undefined)	inactive: 1.96%
Oc1ccccc1CNc1ccccn1	inactive: 0.39%
Cc1ccc(OP(=O)(Nc2nccs2)Oc2ccc(C)cc2)cc1	inactive: 3.69%
COc1ccccc1OP(=O)(Nc1ccc(C)cn1)Oc1ccccc1OC	inactive: 1.65%
CN1CCCC(OC(=O)C(c2ccccc2)c2ccccc2)C1 (centres undefined)	inactive
Clc1ccc(Cl)c(NC2=NCC(CBr)S2)c1 (centres undefined)	inactive: 2.26%
NC(=O)c1cc([N+](=O)[O-])cc([N+](=O)[O-])c1N	inactive: 1.27%

SMILES	inhibition
Cc1ccc(N/C(=N/P(=O)(N2CCOCC2)N2CCOCC2)N2CCOCC2)cc1	inactive
CN(C(=O)Cc1ccc(Cl)c(Cl)c1)[C@H]1CCCC[C@H]1N1CCCC1	inactive: 0.16%
CC(=O)Nc1ccc(Oc2c([N+](=O)[O-])cc([N+](=O)[O-])cc2[N+](=O)[O-])cc1	inactive: 2.53%
CC(=O)Nc1ccc([As](=O)(O)O)c(O)c1	inactive: 0.18%
COC(=O)C1(C)COP(=O)(NCc2ccccc2)OC1 (centres undefined)	inactive
CC(=O)c1ccc(N2CC2c2ccncc2)cc1 (centres undefined)	inactive: 1.43%
N#C/C(=C\c1ccc(N(CCBr)CCBr)cc1)C(N)=O	inactive: 6.31%
C[C@H]1OP(=O)(Oc2ccccc2)C[C@@H]2O[C@@H]21 (some centres undefined)	inactive: 2.09%
C[C@@H]1C=CCP(=O)(Oc2ccccc2)O1 (some centres undefined)	inactive: 2.02%
Cc1ccccc1CN(C)C(=O)COC(=O)C(O)(c1ccccc1)c1ccccc1	inactive: 0.52%
CCc1cc(O)c([N+](=O)[O-])c(C)c1[N+](=O)[O-]	inactive: 2.45%
CC(C)(C)C(=O)NC(Sc1ccccc1)C(Cl)(Cl)Cl (centres undefined)	inactive: 1.66%
CCOc1ccc(C2=NCC(CBr)S2)cc1 (centres undefined)	inactive: 8.01%
O=P1(Nc2nc3ccc(Cl)cc3s2)COc2ccccc2O1 (centres undefined)	inactive: 5.69%
O=c1c2cc([N+](=O)[O-])ccc2[nH]c2c([N+](=O)[O-])cc([N+](=O)[O-])cc12	inactive
CN(C)C(=O)Oc1noc2ccccc12	inactive: 0.18%
CC(NC(=O)COC(=O)C(O)(c1ccccc1)c1ccccc1)c1ccccc1 (centres undefined)	inactive: 2.77%
Cc1ccccc1OP(=O)(Nc1ccccn1)Oc1ccccc1C	inactive: 8.56%
Cc1ccc(OP(=O)(Nc2ccccn2)Oc2ccc(C)cc2)cc1	inactive: 3.53%
CC(=O)NC(SC(=S)N(CC(C)C)CC(C)C)C(Cl)(Cl)Cl (centres undefined)	inactive: 4.23%
COC(=O)c1cc2c(s1)N=C(c1ccccc1)N(C)P2(=O)N1CCOCC1 (centres undefined)	inactive: 4.71%
CCC(=O)N1C2C3N(C(=O)CC)C1C1N(C(=O)CC)C(C(N1C(=O)CC)N3C(=O)CC)N2C(=O)CC	inactive: 1.66%

SMILES	inhibition
O=C(OC1CN2CCC1CC2)c1ccccc1 (centres undefined)	inactive: 0.16%
O=P1(N(CCCl)CCCl)OCCC2CCCCN21 (centres undefined)	inactive
CCNC(=S)/N=C(\N)N[N+](=O)[O-]	inactive: 0.83%
O=C(NC1CCS(=O)(=O)C1)NP(=S)(Oc1ccccc1)Oc1ccccc1 (centres undefined)	inactive: 1.92%
Cc1ccc(NP(=O)(Oc2cccc(C)c2)Oc2cccc(C)c2)nc1	inactive: 1.33%
c1ccc(-c2nn[nH]n2)c(-c2nn[nH]n2)c1	inactive
C(Cc1nn[nH]n1)Cc1nn[nH]n1	inactive
Nc1ccc([As](=O)(O)c2ccc([N+](=O)[O-])cc2)cc1	inactive: 0.48%
O=C(OC1CN2CCC1CC2)c1cccc(Cl)c1 (centres undefined)	inactive: 0.58%
O=[N+]([O-])c1ccc(O)c(/C=N/Nc2ccc([N+](=O)[O-])cc2[N+](=O)[O-])c1	inactive
CC(=O)NC(SC(=S)N(C)C)C(Cl)(Cl)Cl (centres undefined)	inactive: 2.18%
O=[As](O)(c1ccccc1)c1ccc(O)cc1	inactive
C[C@H]1OP(=O)(Oc2ccccc2)[C@H](O)[C@H](O)[C@H]1N=[N+]=[N-] (some centres undefined)	inactive: 1.18%
O=P(Nc1nc2ccccc2s1)(c1ccccc1)c1ccccc1	inactive: 1.66%
COc1ccc(N)c([N+](=O)[O-])c1[N+](=O)[O-]	inactive: 2.37%
O=P(Nc1ccccn1)(c1ccc(Br)cc1)c1ccc(Br)cc1	inactive: 0.69%
CN(C)C1(CNC(=O)c2ccc(Cl)c(S(N)(=O)=O)c2)CCCCC1	inactive: 1.98%
c1nnnn1CCn1cnnn1	inactive
CC(C)C(=O)NC(Sc1ccccc1)C(Cl)(Cl)Cl (centres undefined)	inactive
O=P(Nc1nccs1)(c1ccccc1)c1ccccc1	inactive: 0.05%
